These are literature values, as cited in patent US20230399674A1, “METHODS AND COMPOSITIONS FOR DEGRADING DEOXYNIVALENOL” (published 2023).

The conditions of this data set: well known in the art (Stadler et al. 2019).

As to “3,8,15-trihydroxy-12,13-epoxytrichothec-8-en-7-one”, the “toxicity relative to DON” value is on record as “less toxic than DON”.
